Results of unrelated studies side by side (data: NIAID ChemDB).

All rows: whole-cell or culture tests

ECn is the concentration giving n% inhibition of infection, replication or growth. Inhibition is in % at the dose shown (toxicity tests: loss of growth or viability). Zones are inhibition diameters on agar. Rows are shuffled and stem from different studies. An empty or dashed field is not shown. MIC50, MIC90 and the like: level of inhibition, or share of isolates inhibited.

smiles,method,conditions,measure,mutations,strain or isolate,species,tested at,result
COc1nc2ccc(Br)cc2cc1[C@@H](c1ccccc1)[C@@](O)(CCN(C)C)c1cccc2ccccc12,resazurin,,MIC90,,103,Mycobacterium abscessus,,1 µM
CO[C@H]1/C=C/O[C@@]2(C)Oc3c(C)c(O)c4c(O)c(c(/C=N/N5CCN(C)CC5)c(O)c4c3C2=O)NC(=O)/C(C)=C\C=C\[C@H](C)[C@H](O)[C@@H](C)[C@@H](O)[C@@H](C)[C@H](OC(C)=O)[C@@H]1C,,,MIC90,,58 isolates,Mycobacterium avium intracellulare,,3.13 µg/mL
CCOc1cc(Cc2cnc(N)nc2N)cc(OCC)c1-n1cccc1,,,MIC,,Isolate 5143,Mycobacterium ulcerans,,0.5 µg/mL
COc1c(N2CC(C)NC(C)C2)c(F)cc2c(=O)c(C(=O)O)cn(C3CC3)c12,,,MIC,,ATCC 6841,Mycobacterium fortuitum,,0.06 µg/mL
CO[C@H]1/C=C/O[C@@]2(C)Oc3c(C)c(O)c4c(O)c(c(/C=N/N5CCN(C)CC5)c(O)c4c3C2=O)NC(=O)/C(C)=C\C=C\[C@H](C)[C@H](O)[C@@H](C)[C@@H](O)[C@@H](C)[C@H](OC(C)=O)[C@@H]1C,,,Mean MIC,,ATCC 25291,Mycobacterium avium,,9.25 µg/mL
C#CC(C)(C)O,resazurin,48 h,MIC,,1173P2,Mycobacterium bovis BCG,,125 µg/mL
Cc1nn(-c2ccccc2)c2c1C(c1cn(-c3ccccc3)nc1-c1ccc(F)cc1)C1=C(NC(C)(c3cc(O)cc(O)c3)NC1=O)O2,agar diffusion / agar,,MIC,,NCIM 2240,Mycobacterium phlei,,50 µg/mL
C#CC(CCCCC)OC(C)=O,resazurin,48 h,MIC,,1173P2,Mycobacterium bovis BCG,,125 µg/mL
CCN1CCN(c2c(F)cc3c(=O)c(C(=O)O)cn(C4CC4)c3c2Cl)CC1,,,MIC,,ATCC 6841,Mycobacterium fortuitum,,0.13 µg/mL
COc1c(N2CCNC(C)C2)c(F)cc2c(=O)c(C(=O)O)cn(C3CC3)c12,,,MIC99,,KD1163 (GRYA+),Mycobacterium smegmatis,,0.03 µg/mL
CO[C@@H]1C[C@@H](C[C@H]2CC[C@H](C)[C@H]([C@@H](C)C(=O)O)O2)O[C@]2(O[C@](C)([C@H]3CC[C@@](C)([C@@H]4O[C@@H]([C@H]5O[C@@](O)(CO)[C@H](C)C[C@@H]5C)C[C@@H]4C)O3)C[C@H]2C)[C@@H]1C,resazurin,,MIC,T125 insertion,,Mycobacterium aurum,,0.32 µg/mL
CC(=O)O[C@H]1C[C@@]2(C)[C@@H](C[C@@H](O)[C@H]3[C@@]4(C)CC[C@@H](O)[C@@H](C)[C@@H]4CC[C@@]32C)/C1=C(\CCC=C(C)C)C(=O)O,,,Mean MIC,,ATCC 25291,Mycobacterium avium,,11 µg/mL
CCN1CCN(c2c(F)cc3c(=O)c(C(=O)O)cn(C4CC4)c3c2F)CC1,,,MIC,,ATCC 6841,Mycobacterium fortuitum,,0.13 µg/mL
Cc1nn(-c2ccccc2)c2c1C(c1cn(-c3ccccc3)nc1-c1ccc(F)cc1)C1=C(NC(C)(c3cc(O)c(Cl)c(O)c3)NC1=O)O2,agar diffusion / agar,,zone,,NCIM 2240,Mycobacterium phlei,0.1 mg/mL,3.4 mm
NC[C@H]1O[C@H](O[C@H]2[C@H](O)[C@@H](O[C@H]3O[C@H](CO)[C@@H](O)[C@H](N)[C@H]3O)[C@H](N)C[C@@H]2N)[C@H](N)C[C@@H]1O,,,Mean MIC,,ATCC 25291,Mycobacterium avium,,4 µg/mL
CC(C)N1CCN(c2c(F)cc3c(=O)c(C(=O)O)cn(C4CC4)c3c2F)CC1,,,MIC99,,KD2012 (GYRA G89A),Mycobacterium smegmatis,,1.6 µg/mL
COc1cc(Cc2cnc(N)nc2N)cc(OC)c1Br,,,MBC,,ATCC 35840,Mycobacterium ulcerans,,8 µg/mL
C(#Cc1ccccc1)c1ccccc1,resazurin,24 h,MIC,,1173P2,Mycobacterium bovis BCG,,31.25 µg/mL
CCC[C@@H]1C[C@@H](C(=O)N[C@@H]([C@H]2O[C@H](SC)[C@H](O)[C@@H](O)[C@H]2O)[C@@H](C)O)N(C)C1,,,Median MIC,,ATCC 25291,Mycobacterium avium,,96 µg/mL
C#CCO,resazurin,24 h,MIC,,1173P2,Mycobacterium bovis BCG,,125 µg/mL
CN(C)c1ccc(O)c2c1C[C@H]1C[C@H]3[C@H](N(C)C)C(=O)C(C(N)=O)=C(O)[C@@]3(O)C(=O)C1=C2O,,,Mean MIC,,ATCC 25291,Mycobacterium avium,,32 µg/mL
CO[C@H]1/C=C/O[C@@]2(C)Oc3c(C)c(O)c4c(O)c(c(/C=N/N5CCN(C)CC5)c(O)c4c3C2=O)NC(=O)/C(C)=C\C=C\[C@H](C)[C@H](O)[C@@H](C)[C@@H](O)[C@@H](C)[C@H](OC(C)=O)[C@@H]1C,,,inhibition,,Serovar 8,Mycobacterium avium intracellulare,0.63 µg/mL,38%
COc1c(N2CCNCC2)c(F)cc2c(=O)c(C(=O)O)cn(C3CC3)c12,,,MIC99,,KD2003 (GYRA D95G),Mycobacterium smegmatis,,0.83 µg/mL
NC1CCN(c2c(F)cc3c(=O)c(C(=O)O)cn(C4CC4)c3c2F)C1,,,MIC,,ATCC 6841,Mycobacterium fortuitum,,0.06 µg/mL
Cc1nn(-c2ccccc2)c2c1C(c1cn(-c3ccccc3)nc1-c1ccc(F)cc1)C1=C(NC(C)(c3cc(O)c(I)cc3Cl)NC1=O)O2,agar diffusion / agar,,MIC,,NCIM 2240,Mycobacterium phlei,,60 µg/mL
CCOc1c(N2CCNCC2)c(F)cc2c(=O)c(C(=O)O)cn(C3CC3)c12,,,MIC,,ATCC 6841,Mycobacterium fortuitum,,0.06 µg/mL
CC1CN(c2cc3c(cc2F)c(=O)c(C(=O)O)cn3C2CC2)CC(C)N1,,,MIC99,,KD1998 (GYRA D95N),Mycobacterium smegmatis,,3.4 µg/mL
Nc1ccc(C(=O)O)c(O)c1,agar,,EC50,,155 strains,Mycobacterium avium complex,,>2 µg/mL
O=C(O)c1cc(C(F)(F)F)cc2c(=O)nc(N3CCN(CC4CCCCC4)CC3)sc12,resazurin,,MIC99,,ATCC 15483,Mycobacterium vaccae,,>100 µg/mL
CC(C)N=c1cc2n(-c3ccc(Cl)cc3)c3ccccc3nc-2cc1Nc1ccc(Cl)cc1,agar,,EC50,,14 strains,Mycobacterium avium complex,,<1 µg/mL
C[C@H]1COC2(CCN(c3nc(=O)c4cc(C(F)(F)F)cc(C(=O)O)c4s3)CC2)O1,resazurin,,MIC99,,1999-0888,Mycobacterium bolletii,,>100 µg/mL
CCC1CN(c2c(F)cc3c(=O)c(C(=O)O)cn(C4CC4)c3c2OC)CCN1,,,MIC99,,KD1990 (GYRA D95A),Mycobacterium smegmatis,,0.3 µg/mL
CC1CN(c2c(F)cc3c(=O)c(C(=O)O)cn(C4CC4)c3c2Br)CCN1,,,MIC,,ATCC 6841,Mycobacterium fortuitum,,≤0.03 µg/mL
CNc1ccc2oc(C[C@@H]3OC4(CC[C@@H]3C)O[C@H](C(C)C(=O)c3ccc[nH]3)[C@H](C)C[C@H]4C)nc2c1C(=O)O,resazurin,,MIC,C410 deletion,,Mycobacterium aurum,,0.64 µg/mL
CC[C@H]1OC(=O)[C@H](C)[C@@H](O[C@H]2C[C@@](C)(OC)[C@@H](O)[C@H](C)O2)[C@H](C)[C@@H](O[C@@H]2O[C@H](C)C[C@H](N(C)C)[C@H]2O)[C@](C)(OC)C[C@@H](C)C(=O)[C@H](C)[C@@H](O)[C@]1(C)O,,,Mean MIC,,ATCC 25291,Mycobacterium avium,,2 µg/mL
COc1ccc(-c2nn(-c3ccccc3)cc2C2C3=C(NC(C)(c4cc(O)ccc4Cl)NC3=O)Oc3c2c(C)nn3-c2ccccc2)cc1,agar diffusion / agar,,MIC,,NCIM 2240,Mycobacterium phlei,,1000 µg/mL
NC(=O)c1cnccn1,agar,,EC50,,155 strains,Mycobacterium avium complex,,>50 µg/mL
CCC1CN(c2cc3c(cc2F)c(=O)c(C(=O)O)cn3C2CC2)CCN1,,,MIC99,,KD1991 (GYRA D95Y),Mycobacterium smegmatis,,3.8 µg/mL
NC1CCN(c2c(F)cc3c(=O)c(C(=O)O)cn(C4CC4)c3c2C(F)(F)F)C1,,,MIC,,ATCC 6841,Mycobacterium fortuitum,,0.13 µg/mL
CO[C@H]1/C=C/O[C@@]2(C)Oc3c(C)c(O)c4c(O)c(c5c(c4c3C2=O)NC2(CCN(CC(C)C)CC2)N=5)=NC(=O)/C(C)=C\C=C\[C@H](C)[C@H](O)[C@@H](C)[C@@H](O)[C@@H](C)[C@H](OC(C)=O)[C@@H]1C,,,MBC,,9838,Mycobacterium avium complex,,16 µg/mL
CCCCCCCC(=O)OC(=O)CCCCCC,resazurin,24 h,MIC,,1173P2,Mycobacterium bovis BCG,,125 µg/mL
NC1CCN(c2nc3c(cc2F)c(=O)c(C(=O)O)cn3-c2ccc(F)cc2F)C1,,,MIC,,ATCC 6841,Mycobacterium fortuitum,,0.13 µg/mL
CC[C@@H](CO)NCCN[C@@H](CC)CO,,,MIC,,3010-4,Mycobacterium avium complex,,1.9 µg/mL
CCN1CCN(c2c(F)cc3c(=O)c(C(=O)O)cn(C4CC4)c3c2OC)CC1,,,MIC99,,KD1987 (GYRA A91V),Mycobacterium smegmatis,,0.51 µg/mL
C#CC(C)(CC)OC(C)=O,resazurin,48 h,MIC,,1173P2,Mycobacterium bovis BCG,,125 µg/mL
COc1c(N2CCN(C(C)C)CC2)c(F)cc2c(=O)c(C(=O)O)cn(C3CC3)c12,,,MIC99,,KD2003 (GYRA D95G),Mycobacterium smegmatis,,3 µg/mL
C[C@H]1COC2(CCN(c3nc(=O)c4cc(C(F)(F)F)cc([N+](=O)[O-])c4s3)CC2)O1,resazurin / fluorescence,,MIC,,ATCC 927,Mycobacterium marinum,,0.037 µg/mL
CO[C@H]1/C=C/O[C@@]2(C)Oc3c(C)c(O)c4c(O)c(c5c(c4c3C2=O)NC2(CCN(CC(C)C)CC2)N=5)=NC(=O)/C(C)=C\C=C\[C@H](C)[C@H](O)[C@@H](C)[C@@H](O)[C@@H](C)[C@H](OC(C)=O)[C@@H]1C,,,Mean MIC,,ATCC 25291,Mycobacterium avium,,>0.56 µg/mL
Cc1nn(-c2ccccc2)c2c1C(c1cn(-c3ccccc3)nc1-c1ccc(Cl)cc1)C1=C(NC(C)(c3cc(O)ccc3Cl)NC1=O)O2,agar diffusion / agar,,zone,,NCIM 2240,Mycobacterium phlei,0.1 mg/mL,2 mm
NC[C@@H]1O[C@H](O[C@H]2[C@@H](O)[C@H](O[C@@H]3[C@@H](O)[C@H](N)C[C@H](N)[C@H]3O[C@H]3O[C@H](CO)[C@@H](O)[C@H](O)[C@H]3N)O[C@@H]2CO)[C@H](N)[C@@H](O)[C@@H]1O,,,Mean MIC,,ATCC 25291,Mycobacterium avium,,13 µg/mL
C#CCCOC(=O)CCCCCC,resazurin,48 h,MIC,,1173P2,Mycobacterium bovis BCG,,125 µg/mL
CC1CN(c2cc3c(cc2F)c(=O)c(C(=O)O)cn3C2CC2)CCN1,,,MIC99,,KD2003 (GYRA D95G),Mycobacterium smegmatis,,2.8 µg/mL
CCc1cc(C(N)=S)ccn1,,,Mean MIC,,ATCC 25291,Mycobacterium avium,,>4.5 µg/mL